Anti-infective test results gathered from many reports (values: NIAID ChemDB through PubChem).

Shared fields: growth or infection tests; agent: HIV-1; read-out: EC50

An empty or dashed field is not shown. ECn: concentration that inhibits the pathogen or its effect by n%. Rows are shuffled and stem from different studies.

| compound | strain or isolate | changes | method | cell line | setting | value |
|---|---|---|---|---|---|---|
| CCCc1c(OC2CCCCC2)c2cc(Cl)ccc2[nH]c1=O | NNRTI-resistant (RT K103N) | RT-K103N | β-galactosidase | HeLa + HeLa-MAGI | - | >2 µM |
| COCc1nc(Nc2ccc(C#N)cc2)nc(Nc2c(C)cc(/C=C/C#N)cc2C)c1C(=O)NCCN1CCOCC1 | IIIB | - | - | MT4 CMV-EGFP | - | 0.00389 µM |
| Cc1cn([C@@H]2O[C@@H]3CN[C@@]4(OCc5ccccc5)CS(=O)(=O)O[C@@]34[C@H]2O)c(=O)[nH]c1=O | IIIB | - | - | MT-4 | - | >250 µM |
| CCCCCCCCCCCC(=O)NCC(COP(=O)([O-])OCC[N+](C)(C)C)OCCCCCCCCCC | - | - | plaque count / syncytia | CEM + CEM-SS | - | 0.14 µM |
| O=C(Nc1ccc(Cl)c(F)c1)C(=O)NC1CCNC2(CCCCC2)C1 | YTA | - | single cycle | TZM-bl | - | 27 µM |
| CCCCO[C@]12CS(=O)(=O)O[C@@]13[C@@H](CN2)O[C@@H](n1cc(C)c(=O)[nH]c1=O)[C@@H]3O | IIIB | - | - | MT-4 | - | >125 µM |
| C1CCC(NC2=NCCN2)CCCCC(NC2=NCCN2)CC1 | NL4-3 | - | entry / fluorescence | HEK 293 | - | 15.5 µM |
| CC(C)C1=C2[C@H]3CC[C@@H]4[C@@]5(C)CC[C@H](OC(=O)[C@H]6C[C@@H](C(=O)O)C6(C)C)C(C)(C)[C@@H]5CC[C@@]4(C)[C@]3(C)CC[C@@]2(CC(=O)N[C@@H](C)c2ccccc2)CC1=O | 92HT599 | - | p24 / ELISA | MT-2 | - | <1 µM |
| CCCCCO[C@]12CS(=O)(=O)O[C@@]13[C@@H](CN2)O[C@@H](n1cc(C)c(=O)[nH]c1=O)[C@@H]3O | IIIB | - | - | CEM | - | 160 µM |
| COCc1nc(Nc2ccc(C#N)cc2)nc(Nc2c(C)cc(/C=C/C#N)cc2C)c1C(=O)NCc1ccccn1 | K103N + Y181C | - | - | MT4 CMV-EGFP | - | 0.017 µM |
| CCCCO[C@]12CS(=O)(=O)O[C@@]13C(CN2)O[C@@H](n1cc(C)c(=O)[nH]c1=O)[C@@H]3O[Si](C)(C)C(C)(C)C | IIIB | - | - | MT-4 | - | >10 µM |
| COc1ccc(-c2sc(C)c(C(OC(C)(C)C)C(=O)O)c2-c2ccc3c(c2)CCCO3)cc1 | NL4-3 | - | ATP | MT-4 | - | 0.62 µM |
| COCc1nc(Nc2ccc(C#N)cc2)nc(Nc2c(C)cc(/C=C/C#N)cc2C)c1C(=O)NCCC#N | K103N+Y101C | - | - | MT4 CMV-EGFP | - | 0.0145 µM |
| CC(C)C1=C2[C@H]3CC[C@@H]4[C@@]5(C)CC[C@H](OC(=O)[C@H]6C[C@@H](C(=O)O)C6(C)C)C(C)(C)[C@@H]5CC[C@@]4(C)[C@]3(C)CC[C@@]2([C@@H](O)CN[C@@H](C)c2ccccc2)CC1=O | 92HT599 | - | p24 / ELISA | MT-2 | - | <1 µM |
| CO[C@]12CS(=O)(=O)O[C@@]13C(CN2)O[C@@H](n1cc(C)c(=O)[nH]c1=O)[C@@H]3O[Si](C)(C)C(C)(C)C | IIIB | - | - | MT-4 | - | 8.4 µM |
| Nc1c(C(=O)NCc2ccc(F)cc2F)c(=O)n(O)c2ncc(CCCCCO)cc12 | - | R263K | luciferase / single cycle | HOS | pseudotyped | 2.6 µM |
| CCCCCCCCCCCC(=O)NCC(COP(=O)([O-])OCC[N+](C)(C)C)OCCCCCCCC | - | - | plaque count / syncytia | CEM + CEM-SS | - | 0.64 µM |
| CC(C)C1=C2[C@H]3CC[C@@H]4[C@@]5(C)CC[C@H](OC(=O)[C@H]6C[C@@H](C(=O)O)C6(C)C)C(C)(C)[C@@H]5CC[C@@]4(C)[C@]3(C)CC[C@@]2(CC(=O)NCC(C)(C)NC(=O)c2ccc(S(C)(=O)=O)cc2)CC1=O | 92HT599 | - | p24 / ELISA | MT-2 | - | <1 µM |
| COCc1nc(Nc2ccc(C#N)cc2)nc(Nc2c(C)cc(/C=C/C#N)cc2C)c1C(=O)NCc1cccs1 | L1001+K103N | - | - | MT4 CMV-EGFP | - | 0.107 µM |
| O=C(Nc1ccc(Cl)cc1)C(=O)NC1CCNC2(CCCCC2)C1 | YTA | - | single cycle | TZM-bl | - | 14 µM |
| COCc1nc(Nc2ccc(C#N)cc2)nc(Nc2c(C)cc(/C=C/C#N)cc2C)c1C(=O)NCC(OC)OC | IIIB | - | - | MT4 CMV-EGFP | - | 0.00257 µM |
| CC(C)(C)OC(=O)NCC(=O)NCCN1CCC(NC(=O)C(=O)Nc2ccc(Cl)cc2)CC12CCCCC2 | YTA | - | single cycle | TZM-bl | - | 5.8 µM |
| COCc1nc(Nc2ccc(C#N)cc2)nc(Nc2c(C)cc(/C=C/C#N)cc2C)c1C(=O)NCC1CCCO1 | MDR | - | - | MT4 CMV-EGFP | - | 0.355 µM |
| CC(C)C1=C2[C@H]3CC[C@@H]4[C@@]5(C)CC[C@H](OC(=O)[C@H]6C[C@@H](C(=O)O)C6(C)C)C(C)(C)[C@@H]5CC[C@@]4(C)[C@]3(C)CC[C@@]2(CC(=O)NC[C@@H](N)C(C)C)CC1=O | 92HT599 | - | p24 / ELISA | MT-2 | - | <1 µM |
| CCO[C@]12CS(=O)(=O)O[C@@]13C(CN2)O[C@@H](n1cc(C)c(=O)[nH]c1=O)[C@@H]3O[Si](C)(C)C(C)(C)C | IIIB | - | - | CEM | - | 7.7 µM |
| O=C(Nc1ccc2c(c1)OCO2)C(=O)NC1CCNC2(CCCCC2)C1 | YTA | - | single cycle | TZM-bl | - | >30 µM |
| COCc1nc(Nc2ccc(C#N)cc2)nc(Nc2c(C)cc(/C=C/C#N)cc2C)c1C(=O)NCCN(C)C | K103N + Y181C | - | - | MT4 CMV-EGFP | - | 0.0631 µM |
| CC(C)C1=C2[C@H]3CC[C@@H]4[C@@]5(C)CC[C@H](OC(=O)[C@H]6C[C@@H](C(=O)O)C6(C)C)C(C)(C)[C@@H]5CC[C@@]4(C)[C@]3(C)CC[C@@]2(CC(=O)NCC(C)(C)NC(=O)c2ncccn2)CC1=O | 92HT599 | - | p24 / ELISA | MT-2 | - | <1 µM |
| Cc1c(OCC2CCC2)c2cc(F)ccc2[nH]c1=O | NNRTI-resistant (RT K103N G190A) | RT-K103N G190A | β-galactosidase | HeLa + HeLa-MAGI | - | >2 µM |
| CC(C)C1=C2[C@H]3CC[C@@H]4[C@@]5(C)CC[C@H](OC(=O)[C@H]6C[C@@H](C(=O)O)C6(C)C)C(C)(C)[C@@H]5CC[C@@]4(C)[C@]3(C)CC[C@@]2(CCNCC(C)(C)NC(=O)c2ccc(Cl)cc2OC2CCNCC2)CC1=O | 92HT599 | - | p24 / ELISA | MT-2 | - | <1 µM |
| C1CNC(NC2CCC(NC3=NCCN3)CC2)=N1 | NL4-3 | - | entry / fluorescence | HEK 293 | - | 40.95 µM |
| Cc1cn([C@@H]2O[C@@H]3CN[C@@]4(C#N)CS(=O)(=O)O[C@@]34[C@H]2O)c(=O)[nH]c1=O | IIIB | - | - | MT-4 | - | >250 µM |

For reference, 2 entries again:

CCCCO[C@]12CS(=O)(=O)O[C@@]13[C@@H](CN2)O[C@@H](n1cc(C)c(=O)[nH]c1=O)[C@@H]3O ; strain or isolate: IIIB ; cell line: MT-4 ; value: >125 µM
COCc1nc(Nc2ccc(C#N)cc2)nc(Nc2c(C)cc(/C=C/C#N)cc2C)c1C(=O)NCc1ccccn1 ; strain or isolate: K103N + Y181C ; cell line: MT4 CMV-EGFP ; value: 0.017 µM